Compound potency records, mixed from different reports. Data source: NIAID ChemDB in PubChem.

Common to all: growth or infection tests; organism: Hepatitis B virus

ECn is the concentration giving n% inhibition of infection, replication or growth. Blank or dashed fields: not listed here. a–b is a range or a potency band. Conditions beyond the fields shown may differ between rows.

| structure | strain | read-out | cells | method | result |
|---|---|---|---|---|---|
| C=C1[C@H](CO)[C@@H](O)C[C@@H]1n1cnc2c(=O)[nH]c(N)nc21 | Genotype D | EC50 | HepG2-NTCP | ELISA / antigen | >0.1 µM |
| Cc1cc(F)cc(C(=O)Nc2ccc(-c3nnc(-c4ccccc4)o3)cc2)c1 |  | EC50 | Primary human hepatocytes (PHH) | antigen / luminescence | 1.61 µM |
| CC1O[C@@H]2C[C@H]3[C@H]4C5=C(C(=O)OCC5=C[C@]13C1=C2C(=O)OCC1)[C@@H](O)[C@]12C(=O)OCCC1=C(C=O)[C@@H](C)O[C@H]42 |  | EC50 | HepG2.2.15 | ELISA / antigen | 500 µM |
| Cc1c(C(=O)C(=O)NC(C)(C)c2cnn(C3CC3)c2)c(C)n(C)c1C(=O)Nc1ccc(F)c(C(F)(F)F)c1 |  | EC50 | HepG2.2.15 | PCR | 0.001–0.0099 µM |
| CC1O[C@@H]2C[C@H]3[C@H]4C5=C(C(=O)OCC5=C[C@]13C1=C2C(=O)OCC1)[C@@H](O)O[C@@H]4c1cccc2c1CCOC2=O |  | EC50 |  | PCR | 2.12 µM |
| CCOC(=O)[C@H](C)NP(=O)(OC[C@@H]1OC[C@H](n2cnc3c(N)nc(N)nc32)O1)Oc1ccccc1 | Wild | EC50 | AD38 |  | 0.3 µM |
| O=C(NCc1ccccc1)c1c2n(c(=O)n1-c1ccc(N3CCO[C@@H](C(F)(F)F)C3)cc1)CCN(C(=O)c1ccc(Br)c(Cl)c1)C2 |  | EC50 | HepG2.117 | PCR | 0.1–0.5 µM |
| CCOC(=O)[C@H](C)NP(=O)(OC[C@@H]1OC[C@H](n2cnc3c(=O)[nH]c(N)nc32)O1)Oc1ccccc1 | Wild | EC90 | AD38 |  | 2 µM |
| N#CCCC1C(=O)c2ccc(-c3cccc(C#N)c3)cc2OC12CCCC2 |  | EC50 | HepG2.2.15 |  | 0.03 µM |
| CC1O[C@@H]2C[C@@H]3[C@@H]4C5=C(C(=O)OCC5=C[C@]13C1=C2C(=O)OCC1)[C@@H](O)[C@]12C(=O)OCCC1=C(C=O)[C@@H](C)O[C@@H]42 |  | EC50 |  | PCR | 2.58 µM |
| O=C(NCc1ccccc1)c1c2n(c(=O)n1-c1cccnc1)CCN(C(=O)c1ccc(Cl)c(Cl)c1)C2 |  | EC50 | HepG2.117 | PCR | >5 µM |
| C[C@@H]1c2[nH]nc(-c3ncccn3)c2CN(C(=O)Nc2ccc(F)c(C#N)c2)[C@@H]1C |  | EC50 | HepG2.2.15 | PCR | 0.29 µM |
| COc1cc(CNC(=O)c2c3n(c(=O)n2-c2ccc(OC(C)C)cc2)CCN(C(=O)c2ccc(Br)c(Cl)c2)C3)ccc1C#N |  | EC50 | HepG2.117 | PCR | 0.5–5 µM |
| O=C(CNC(=O)c1ccc(F)cc1)Nc1ccc(Cl)nc1Cl |  | EC50 | HepG2.2.15 | PCR | 0.88 µM |
| C#CCNC(=O)C(=O)c1cc(C(=O)Nc2ccc(F)c(C#N)c2)n(C)c1 |  | EC50 | HepG2.2.15 | PCR | >1 µM |
| Nc1ncc(Br)c2c1ncn2[C@@H]1C[C@H](O)[C@@H](O)[C@H]1O |  | EC50 | HepG2.2.15 |  | 0.022 µM |
| Cc1c(C(=O)C(=O)NC(C)(C)c2cccnc2)c(C)n(C)c1C(=O)Nc1ccc(F)c(C#N)c1 |  | EC50 | HepG2.2.15 | PCR | 0.001–0.0099 µM |
| Nc1nc2c(ncn2[C@H]2CO[C@@H](CO)O2)c(=O)[nH]1 | Wild | EC50 | AD38 |  | 30 µM |
| Nc1ccn([C@@H]2CC[C@H](CO)O2)c(=S)n1 |  | EC50 |  |  | >100 µM |
| C[C@@H]1c2[nH]nc(-c3ncccn3)c2CN(C(=O)Nc2ccc(F)c(C#N)c2)[C@H]1C |  | EC50 | HepG2.2.15 | PCR | 0.007 µM |
| Nc1nc(=O)c2ncn([C@@H]3O[C@H](CO)[C@@H](O)[C@H]3O)c2c(=O)[nH]1 |  | EC50 | 2.2.15 | antigen | >10 µM |
| O=C(c1ccc(Br)c(Cl)c1)N1CCn2c(c3n(c2=O)C[C@@H](F)CN(Cc2ccccc2)C3=O)C1 |  | EC50 | HepG2.117 | PCR | 0.1–0.5 µM |
| C[C@@H]1c2[nH]nc(-c3ncccn3)c2CN(C(=O)Nc2ccnc(Br)c2F)[C@@H]1C |  | EC50 | HepG2.2.15 | PCR | 0.51 µM |
| COc1ccc(-n2c(C(=O)NCc3ccccc3)c3n(c2=O)CCN(C(=O)c2ccc(Cl)c(Cl)c2)C3)c(Cl)c1 |  | EC50 | HepG2.117 | PCR | 0.5–5 µM |
| Nc1ccn([C@H]2CC[C@H](CO)O2)c(=S)n1 |  | EC50 |  |  | >100 µM |
| Cc1c(C(=O)C(=O)NC(C)(C)c2nnco2)c(C)n(C)c1C(=O)Nc1ccc(F)c(C(F)(F)F)c1 |  | EC50 | HepG2.2.15 | PCR | 0.001–0.0099 µM |
| CCOC(=O)[C@H](C)NP(=O)(OC[C@@H]1OC[C@H](n2cnc3c(Cl)nc(N)nc32)O1)Oc1ccccc1 | Wild | EC50 | AD38 |  | 0.8 µM |
| COc1ccc(-n2c(C(=O)NCc3ccc(OC(C)C)cc3)c3n(c2=O)CCN(C(=O)c2ccc(Br)c(Cl)c2)C3)cc1 |  | EC50 | HepG2.117 | PCR | 0.1–0.5 µM |
| CN(C)S(=O)(=O)NCC(=O)Nc1ccc(Cl)nc1Cl |  | EC90 | HepG2.2.15 | PCR | >100 µM |
| CC(C)Oc1ccc(-n2c(C(=O)NCc3ccc(CO)cc3)c3n(c2=O)CCN(C(=O)c2ccc(Br)c(Cl)c2)C3)cc1 |  | EC50 | HepG2.117 | PCR | >5 µM |
| O=c1[nH]c(=O)n([C@@H]2C[C@@H](O)[C@H](CO)O2)cc1I |  | EC50 |  |  | >100 µM |
| O=C(CNC(=O)c1ccccn1)Nc1ccc(Cl)nc1Cl |  | EC50 | HepG2.2.15 | PCR | 4 µM |
| COc1ccc(CNC(=O)C2C3CN(C(=O)c4ccc(Br)c(Cl)c4)CCN3CN2c2ccc(C#N)cc2)c(F)c1 |  | EC50 | HepG2.117 | PCR | 0.5–5 µM |
| C#C[C@](CO)(NC(=O)C(=O)c1c(C)c(C(=O)Nc2ccc(F)c(C(F)(F)F)c2)n(C)c1C)C1CC1 |  | EC50 | HepG2.2.15 | PCR | <0.001 µM |

Again, the opening 3 rows:

structure	strain	read-out	cells	method	result
C=C1[C@H](CO)[C@@H](O)C[C@@H]1n1cnc2c(=O)[nH]c(N)nc21	Genotype D	EC50	HepG2-NTCP	ELISA / antigen	>0.1 µM
Cc1cc(F)cc(C(=O)Nc2ccc(-c3nnc(-c4ccccc4)o3)cc2)c1		EC50	Primary human hepatocytes (PHH)	antigen / luminescence	1.61 µM
CC1O[C@@H]2C[C@H]3[C@H]4C5=C(C(=O)OCC5=C[C@]13C1=C2C(=O)OCC1)[C@@H](O)[C@]12C(=O)OCCC1=C(C=O)[C@@H](C)O[C@H]42		EC50	HepG2.2.15	ELISA / antigen	500 µM